Reference: US20050282254

What was measured:
[1] = molecular target: T1, Trx fused with 10/5 recognition site (construct 8)
T1 chain: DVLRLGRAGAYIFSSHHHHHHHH

[2] = molecular target: T2, Trx fused with 6/5 recognition site (construct 12)
T2 chain: LGRAGAYIFSSHHHHHHHH

B1: Pro39 (C-terminal cysteine protease domain of Semliki Forest virus non-structural protein nsP2) (protein)
chain: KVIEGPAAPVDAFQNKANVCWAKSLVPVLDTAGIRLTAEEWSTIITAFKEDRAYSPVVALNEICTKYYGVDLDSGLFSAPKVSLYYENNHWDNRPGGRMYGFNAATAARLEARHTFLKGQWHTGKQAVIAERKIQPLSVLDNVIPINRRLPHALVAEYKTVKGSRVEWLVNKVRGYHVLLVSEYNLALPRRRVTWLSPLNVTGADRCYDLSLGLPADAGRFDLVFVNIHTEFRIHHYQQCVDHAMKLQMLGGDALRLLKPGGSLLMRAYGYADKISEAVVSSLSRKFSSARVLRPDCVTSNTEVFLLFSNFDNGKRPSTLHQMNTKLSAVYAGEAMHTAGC
In the case of B1, the “cleavage specificity, MALDI-TOF mass-spectrometry” value [1] is reported as “cleavage specificity was also maintained for these truncates sites” and the “cleavage specificity, MALDI-TOF mass-spectrometry” value [2] is reported as “cleavage specificity was also maintained for these truncates sites”.
